Experimental data published in paper PMC11623273, “Epitope-focused immunogens targeting the hepatitis C virus glycoproteins induce broadly neutralizing antibodies” (Science Advances, 2024).

Biological target: T1, E2_S2_1 (design 2K6Z_01), epitope scaffold presenting HCV E2 epitope I
T1 chain: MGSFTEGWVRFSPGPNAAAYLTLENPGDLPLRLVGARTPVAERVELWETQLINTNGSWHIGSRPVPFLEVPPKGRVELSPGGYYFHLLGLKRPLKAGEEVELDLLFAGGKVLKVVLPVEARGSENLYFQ

B1: N08 (antibody, V domains shown)
VH: QVQLVESGGGVVQPGRSLRLSCAASGFTFSSYDMHWVRQAPGKGLEWMAVICFDGANTYYADSVKGRFTISRDNSKNTLYLQMNSLRAEDTAVYYCALGARNYFYYGMDVWGQGTTVTVSS
VL: DIQMTQSPSSLSASVGDRVTITCRASQGIRNDLGWYQQKPGKAPKRLIYAASSLQSGVPSRFSGSGSGTEFTLTISSLQPEDSATYYCLKHNSYPWTFGQGTKVEIK
binding result: binds
